This data set has as its target T1, MtuSSB (Mycobacterium tuberculosis) (UniProt P9WGD5).
T1 sequence: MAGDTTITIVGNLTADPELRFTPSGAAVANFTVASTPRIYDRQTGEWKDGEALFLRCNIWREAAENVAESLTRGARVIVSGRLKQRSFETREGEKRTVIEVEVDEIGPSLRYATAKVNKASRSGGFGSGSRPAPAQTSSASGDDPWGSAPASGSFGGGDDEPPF
Briefly: EMSA. To be noted: recombinant protein; label: 5'-32P; single-stranded DNA.

Construct, isoform or probe ends are uncertain for at least one entry. At least one verdict rests on a figure or table, not on a statement of the authors. Protein sequences can lack the tags named with them.

Regarding “GCACTAGTGCGGATAGCCCCGTGTTGTTGTCTGACCCCCGACCCCGACGGCAATGCGGGGCAATCCCCTGGAGGCCTGC [79mer ssDNA]”, the binding result is “binds”.
